Results on 1 molecule are retold here after patent publication US20190136246A1 (CSIR, published 2019).

The test addresses BTV-8 core-like particle (BTV-8 VP3 SEQ ID NO:1 and BTV-8 VP7 SEQ ID NO:5) (Bluetongue virus serotype 8, UniProt P12435 1-901; P69361 1-349). As to the kind of experiment: VLP assembly on co-expression in N. benthamiana; iodixanol gradient, TEM.

B1: BTV-8 VP2 (SEQ ID NO:7) (other)
chain: MEELAIPIYTNVFPAELLDGYDYIIDVSSRVEEEGDEPVKRHDVTEIPRNSMFDIKDEHIRDAIIYKPVNNDGYVLPRVLDITLKAFDDRKRVVLNDGHSEFHTKTNWVQWMIDDAMDVQPLKVDIAHTRSRISHALFNCTVRLHSKKADTASYHVEPVEIESWGCNHTWLSRIHHLVNVELFHCSQEAAYTLKPTYKIISNAERASTSDSFNGTMIELGRNHQIQMGDQGYQKLKEGLVQVRIEGKTPLVIQEEITALNKIREQWIARNFDQREIKVLDLCRLLSTIGRKMCNTEEEPKNEADLSVKFQMELDEIFRPGNNERTNIMGGGVHRKNEDRFYVLIMIAASDTNKGRIWWSNPYPCLRGALIAAEVQLGDVYNLLRNWFQWSVRPTYVPYDRNRESDKYIYSRINLFDSTLRPGDKIVHWEYKLLNEVREVSINKGNECDLFPEDEEFTTKFHEARYTEMKNQIIQSGWNQRDFKMHKILEDGANVLTIDFEKDAHIGTGSALSLPDYYNKWIIAPMFNAKLRITEVVIGTAHTDDPAVGRSAKAFTHDPFDLQRYCLARYYDVRPGMMGRALSKQQNMSSMTDKLSKQEDYAGIVSRRLEYKERENRCLTETAQYVFEKTCLYVLELLSRHTMPSEDSEVTFEHPTIDPSVDIETWKIIDVSQLIIFVFDYLFENRKIVRDTTEARWTLFKIRSEVGRARIDAIEMTFPRFGRMLRNASQAKINQDIACLNFLPLLFIIGDNISYAHRQWSIPVLLYAHDIRIIPLEVGAYNNRFGLTSYLEYMAFFPSYATRVAKIDESIKECAIAMAEFYMNTDIHSGSVMSNVITTKRLLYETYLASLCGGYSDGLLWYLPITHPSKCLVAFEVADDVVPLSVRRERILSRFPLSSRHVKGIALISVDRNQKVSVQTEGIVTHRLCKKNLLKYVCDVILFKFSGHVFGNDEMLTKLLNV
As for B1, the binding result is given as “binds”.
